{
  "source": "patent US6623741B1",
  "about": "“Methods and compositions for inhibition of membrane fusion-associated events including RSV transmission” (Trimeris, Inc., priority 2000, dated 2003)",
  "test": "Analytical ultracentrifugation (sedimentation equilibrium)",
  "type": "physicochemical",
  "protocol": "Analytical Ultracentrifugation:\nSedimentation equilibrium experiments were performed on a Beckman Optima XL-A analytical ultracentrifuge at 4° C. Six-channel cells (12 mm optical path length) were used with an An-60 Ti rotor operated at 13,500, 16,000, 17,000, 20,000, 21,000, 24,000, 25,000, 27,500, 30,000 and 35,000 rpm. The cell radii were scanned using 0.001 cm steps with 10 averages/scan. Data were analyzed using Beckman XLA data analysis software (version 3.01 for Windows) and Beckman-Origin software (version 3.78 for Windows). […] The partial specific volumes were held constant for all models considered.\nSingle data files were normalized to 270 nm absorbance values using Beer's Law. The data obtained with solutions containing the DP107-like peptides were then analyzed using a single ideal species model to determine a weight-averaged molecular weight (Mw). Diagnostic plots of Mw/Mw0 vs. rpm/rpm0 and Mw vs. radial concentration were used to test for sample homogeneity as described, e.g., by McRorie & Voelker, 1993, Self-Associating Systems in the Analytical Ultracentrifuge, Beckman Instruments, Inc., Palo Alto; and Yphantis et al., 1978, in Physical Aspects of Protein Interactions: Proceedings of the Symposium on Protein Interactions, American Chemical Society Meeting, Catsimpoolas, Ed., pp. 275-303, Elsevier, Miami Beach, Fla. […] To convert the resulting association constant from absorbance units to concentration units, it was assumed that the absorbance of the n-mer is n times that of the monomer.\nThe data obtained with DP107-like/DP178-like peptide mixtures were first analyzed with a single ideal species model. […] The mixtures were analyzed with a two-ideal species model, choosing one species to have a molecular weight of either 28,269 Da (corresponding to three DP107-like plus three DP178-like peptides) or […] (corresponding to four DP107-like plus four DP178-like peptides).",
  "data": [
    {"sequence": "AVSKVLHLEGEVNKIKSALLSTNKAVVSLSNGVSVLTSKVLDLKNYIDKQ [Peptide T1772, RSV DP107-like peptide, residues 153-202 of the RSV F-protein]", "values": [
      {"measurement": "association constant Ka, monomer/trimer equilibrium, single data set", "setting": "100 μM, 24,000 rpm, 4° C.", "result": "2.45×10^9 M^−2"},
      {"measurement": "association constant Ka, monomer/trimer equilibrium, global fit", "setting": "Group I: 15, 50 and 100 μM", "result": "5.03 × 10^8 M^−2"},
      {"measurement": "association constant Ka, monomer/trimer equilibrium, global fit", "setting": "Group II: 25, 75 and 150 μM", "result": "5.37 × 10^8 M^−2"}
    ]}
  ]
}
